B1: MtrB: subunit of the M. mazei MtrA-MtrH complex detected in pulldown (protein, UniProt P80655 2-108, looked up)
Tetrahydromethanopterin …: SIVRIAPEINLVMDTESGTVTQERKDSIQYSMEPVFERVDKLDAIADDLVNSLSPSKPLLNTWPGRENTSYIAGIYSNSFYGIIVGLAFSGLLALIIYITRLMGGVV
B2: MtrF: subunit of the M. mazei MtrA-MtrH complex detected in pulldown (protein, UniProt P80654 2-72, looked up)
Tetrahydromethanopterin …: AEEHEKGVPMVLAPQMGAIDATVESIRYRAQLIARNQKLDSGVAATGIIGFAAGFLFSLLMVIVLPVAVGL
B3: M. mazei Adriase: Methanosarcina mazei Adriase (MM_2909), archaeal peptide recombinase, C-terminal His6-tag; Strep-, Myc-, HA-tagged versions used as pulldown bait (protein)
chain: TLVIAFIGKNGAVMAGDMREITFEGEKPDREKLEKELYSGSIVTDEEMQKKAEEFGVKITVADCKEKVSERNGVLVGEVSSAEGGVVKKRRLYASAGNFAIAELINTEMTLTSQGKGSNFIAFGNEFTKQVANKCFKDNWTKKSNLQDAVKILILCMETVARKTASVSKQFMIVQTASNADVLKVVEKDRNCGSHHHHHH
modifications: C-terminal His6-tag; M. mazei Adriase with C-terminal His-tag
notes: Methanosarcina mazei Adriase (MM_2909), archaeal peptide recombinase, C-terminal His6-tag; Strep-, Myc-, HA-tagged versions used as pulldown bait

Test system: M. mazei Adriase
Assay: Pulldown of M. mazei whole cell extract with bead-coupled tagged M. mazei Adriase, LC-MS/MS of eluate
Conditions: for Intensity (Experiment 2.3): bait Adriase coupled via C-terminal HA-tag; for Intensity (Experiment 2.2): bait Adriase coupled via C-terminal Myc-tag; for Intensity (Experiment 2.1): bait Adriase coupled via C-terminal Strep-tag

| Molecule | Intensity (Experiment 2.3) [arbitrary units] | Intensity (Experiment 2.2) [arbitrary units] | Intensity (Experiment 2.1) [arbitrary units] |
| --- | --- | --- | --- |
| B1 | 6.2E+06 | 3.2E+06 | 1.4E+06 |
| B2 | 4.3E+05 | – | – |
| B3 | 2.1E+10 | 6.8E+09 | 6.4E+09 |

Source: patent US20260275319A1, “ARCHAEAL PEPTIDE RECOMBINASE – A NOVEL PEPTIDE LIGATING ENZYME” (MAX-PLANCK-GESELLSCHAFT ZUR FÖRDERUNG DER WISSENSCHAFTEN …, priority 2019, published 2026)
